Source: ChEMBL document CHEMBL1800046, “Design, synthesis, and X-ray crystallographic studies of α-aryl substituted fosmidomycin analogues as inhibitors of Mycobacterium tuberculosis 1-deoxy-D-xylulose 5-phosphate reductoisomerase” (J Med Chem, 2011)

Assay: Inhibition of Mycobacterium tuberculosis DXR-catalyzed NADPH-dependent rearrangement and reduction of DXP to form MEP measured every 5 secs for 500 secs by spectrophotometric analysis

O=CN(O)CCC(c1ccc(Cl)c(Cl)c1)P(=O)(O)O (racemic)
pIC50: 6.82

pIC50: −log10 of the molar value.
